Anti-infective test results gathered from many reports (values: NIAID ChemDB through PubChem).

Shared fields: tests on isolated targets; organism: HIV-1; protein: gp120

Blank or dashed fields: not listed here. Inhibition is in % at the dose shown (toxicity tests: loss of growth or viability). Rows are shuffled and stem from different studies. ICn: concentration for n% inhibition.

structure	strain	read by	measure	dose	value
O=C1c2c(O)cc(O)cc2O[C@H](c2ccc(O)cc2)[C@H]1O	-	ELISA	inhibition	20 µg/mL	72%
O=C(OCC1OC(OCCc2ccccc2)C(O)C(O)C1O)c1cc(O)c(O)c(O)c1	-	binding	inhibition	9 µg/mL	~59%
O=C1C[C@@H](c2cc(O)ccc2O)Oc2cc(O[C@@H]3C[C@@H](O)[C@H](O)[C@@H](CO)O3)cc(O)c21	-	ELISA	IC50	-	>16 µg/mL
O=C(CO)N[C@@H]([C@@H](O)[C@H](O)[C@H](O)CO)[C@@H](O)C(=O)C(=O)O	MN	-	inhibition	40 µM	34.1%
NOCc1c(F)cccc1Cl	-	ELISA	inhibition	100 µg/mL	21.7%
N[C@@H](CO)CC[C@@H]1O[C@H](CO)[C@H](O)[C@H](O)[C@H]1O	-	ELISA	inhibition	1000 µg/mL	0%
O=C1c2c(O)cc(O[C@@H]3C[C@@H](O)[C@H](O)[C@@H](CO)O3)cc2O[C@H](c2ccc(O)cc2)[C@H]1O	-	ELISA	inhibition	250 µg/mL	40%
CCN(CCCl)CC1CC(c2ccccc2)(c2ccccc2)C(=O)O1	-	ELISA	IC50	-	35 µM
Cc1ccc(-c2ccc3c(c2)C=C(C(=O)Nc2ccc(C[N+](C)(C)C4CCOCC4)cc2)CCC3)cc1	JR-FL	antigen	inhibition	10 µM	0%
O=C1c2c(O)cc(O[C@@H]3C[C@@H](O)[C@H](O)[C@@H](CO)O3)cc2O[C@H](c2ccc(O)c(O)c2)[C@H]1O	-	ELISA	IC50	-	>50 µg/mL
CCCCCCCCCCCC(=O)N(CCCCCCCCCCC(=O)O)CC(O)C(O)C(O[C@@H]1O[C@H](CO)[C@H](O)[C@H](O)[C@H]1O)C(O)CO	-	radiometric	IC50	-	9.4 µM
CCC(C)/C=C(C)/C=C/C(=O)CC1=C(Cl)C2=C(C(C)=O)C(=O)O[C@]2(C)c2oc(=O)c(C(C)=O)cc21	-	-	IC50	-	>100 µg/mL
Oc1cc(O)c2c(c1)O[C@H](c1ccc(O)c(O)c1)[C@H](O)C2	IIIB	ELISA	inhibition	0.5 µg/mL	36%
CCC(C)/C=C(C)/C=C/C1=CC2=C(Cl)C(=O)[C@]3(C)OC(=O)C=C3C2=CO1	-	-	IC50	-	8.1 µg/mL
CC[C@H](C)/C=C(C)/C=C/C1=CC2=C(Cl)C(=O)[C@@]3(C)OC(=O)C(C(C)=O)=C3C2=CO1	-	ELISA	inhibition	300 µM	0%
O=C(O[C@@H]1Cc2c(O)cc(O)cc2O[C@@H]1c1ccc(O)c(O)c1)c1cc(O)c(O)c(O)c1	IIIB	ELISA	inhibition	2 µg/mL	78%
O=C(O[C@@H]1Cc2c(O)cc(O)cc2O[C@@H]1c1cc(O)c(O)c(O)c1)c1cc(O)c(O)c(O)c1	-	fluorescence	inhibition	100 µM	50%
CC[C@H](C)C=C(C)/C=C/C1=CC2=C(Cl)C(=O)[C@]3(C)OC(=O)[C@@H](C(C)=O)[C@@H]3C2=CO1	-	-	IC50	-	2.75 µg/mL
CC[C@H](C)/C=C(C)/C=C/C1=CC2=C(Cl)C(=O)[C@](C)(OC(C)=O)C(=O)C2=CO1	-	ELISA	inhibition	250 µM	0%
COC(=O)C(=O)N1CCC[C@H]1/C=C\[C@H](Cc1ccccc1)C(=O)OCc1ccccc1	-	ELISA	IC50	-	>1000 µg/mL

2 of the rows above, restated:

structure	strain	read by	measure	dose	value
COC(=O)C(=O)N1CCC[C@H]1/C=C\[C@H](Cc1ccccc1)C(=O)OCc1ccccc1	-	ELISA	IC50	-	>1000 µg/mL
CC[C@H](C)/C=C(C)/C=C/C1=CC2=C(Cl)C(=O)[C@@]3(C)OC(=O)C(C(C)=O)=C3C2=CO1	-	ELISA	inhibition	300 µM	0%